In PubChem BioAssay AID624173 (National Center for Advancing Translational Sciences (NCATS), 2012):
Values joined by “and” are separate entries in the source; they are usually repeats but may differ in a detail not shown here. Equal entries are not always repeated. This is a selection; strong and weak results do not stand in their true shares. Active and inactive are the calls of the source. Calls come from the whole dose curve; as a rule, active = well fitted inhibition curve with a large enough effect; inconclusive = small, poorly fitted or top-dose-only effect; inactive = flat fitted curve, though single readings scatter.

These compounds were tested against pyruvate kinase (Trypanosoma brucei) (UniProt Q57TT1) (assay: qHTS of Trypanosoma Brucei Inhibitors). Conditions: TbPYK enzyme, Kinase-Glo Plus ATP luminescence, 45 min; at 76.8 µM (top of the series) unless noted.
% is set by controls: 0 for no effect and ±100 for the full control effect.
Note: nearly all actives have a fitted effect of over 50% in size.

Compound	activity, negative = inhibition
CCOP(=O)(Nc1cccc2ccccc12)OCC	inactive: -27.1%
COc1cc(C2NCCC3(OCCO3)C2(C)C)cc(OC)c1OC (stereo unspecified)	inactive: -3.52%
CCCOP(=S)(Nc1nc(N)cc(=O)[nH]1)OCCC	inactive: -4.02%
Cc1ccc(NCCc2c([N+](=O)[O-])cc([N+](=O)[O-])cc2[N+](=O)[O-])cc1	inactive: -0.595%
Nc1cccc2c([As](=O)(O)O)cccc12	inactive: -5.63%
O=[As](O)(c1cccc(O)c1)c1cccc(O)c1	inactive: 21.5%
Cc1cccc(OCC(=O)OC2CN3CCC2CC3)c1 (stereo unspecified)	inactive: -3%
CS(=O)(=O)c1ccc(Cl)c(NC(=O)COC(=O)C(O)(c2ccccc2)c2ccccc2)c1	inactive: -9.47%
COc1cc(C(=O)NCC2(N3CCOCC3)CCCCC2)cc(Cl)c1OC(C)C	inactive: -0.833%
O=[As](O)(O)c1cccnc1	inactive: 3.74%
O=C(OC1CN2CCC1CC2)c1ccc(Cl)cc1 (stereo unspecified)	inactive: 1.19%
CN(C)C(=O)c1cc([N+](=O)[O-])cc2c1-c1c(cc([N+](=O)[O-])cc1[N+](=O)[O-])C2=O	inactive: -3.05%
O=[N+]([O-])c1ccc2c(c1)nnn2O	inactive: 1.1%
CN(C(=O)Cc1ccccc1)[C@@H]1CC[C@]2(CCCO2)C[C@H]1N1CCCC1	inactive: 1.93%
CCOP1(=S)c2c(C)nn(CCC#N)c2N=C(c2ccc(F)cc2)N1C (stereo unspecified)	inactive: -6%
N#CCCN(C(=O)COC(=O)C(O)(c1ccccc1)c1ccccc1)c1ccc(F)cc1	inactive: 0.225%
NC(=O)Nc1ccc([As](=O)(O)O)cc1	inactive: 2.46% and inactive: -1.55%
Nc1ccccc1[As](=O)(O)c1ccccc1	inactive: 5.49%
O=C(O)COc1ccc([As](=O)(O)O)cc1[N+](=O)[O-]	inactive: 5.65%
O=P(Nc1nccs1)(Oc1ccccc1)Oc1ccccc1	inactive: 2.24%
CCOP1(=S)c2c(C)nn(CCC#N)c2N=C(c2ccccc2F)N1C (stereo unspecified)	inactive: 1.24%
O=P1(Nc2ccc(Br)cn2)COc2ccccc2OC1	inactive: 0.681%
NS(=O)(=O)c1cccc(NC(=O)COC(=O)C(O)(c2ccccc2)c2ccccc2)c1	inactive: -9.08%
Cc1ccc(OCC(=O)OC2CN3CCC2CC3)cc1 (stereo unspecified)	inactive: 5.81%
O=[As](O)(c1cccs1)c1cccs1	inactive: -0.492%
Nc1cccc([As](=O)(O)c2ccccc2)c1	inactive: -2.19%

Compound	activity, negative = inhibition
O=P1(Nc2ncccn2)COc2ccccc2OC1	inactive: 2.43%
Cc1ccc(S(=O)(=O)N(CCCN)CCCc2c(C)nc(N)[nH]c2=O)cc1	inactive: 7.78%
CCCC1OP(=O)(Nc2ccccc2)OCC1CC (stereo unspecified)	inactive: -5.54%
O=C(/C=C/c1ccccc1)OC1CN2CCC1CC2 (stereo unspecified)	inactive: -5.61%
CN(C)C1(CNC(=O)c2ccc(S(C)(=O)=O)cc2)CCCCC1	inactive: -6.05%
CC1CCC(C(C)C)C(OP(=O)(Nc2ccccn2)c2ccccc2)C1 (stereo unspecified)	inactive: 3.51%
Cc1ccc(C(=O)OC2CN3CCC2CC3)cc1 (stereo unspecified)	inactive: 5.19%
Cc1nn(-c2ccccc2)c2c1P(=O)(N1CCOCC1)N(C)C(c1ccccc1)=N2 (stereo unspecified)	inactive: -1.61%
CC1(CBr)Cn2c(nc3ccccc3c2=O)S1 (stereo unspecified)	inactive: 1.59%
CC(C)/C=N\N=C(\N)N[N+](=O)[O-]	inactive: -3.85%
COc1ccccc1CNC(=O)COC(=O)C(O)(c1ccccc1)c1ccccc1	inactive: 4.42%
CC(C)(C)C(=O)NC(Sc1ncccn1)C(Cl)(Cl)Cl (stereo unspecified)	inactive: 1.2%
O=P1(N(CCCl)CCCl)NCCC(C(F)(F)F)O1 (stereo unspecified)	inactive: -0.327%
CN(CCCl)Cc1cc(Cl)c(NC2=NCCN2)c(Cl)c1	inactive: 5.94%
CCOP(=O)(Nc1ccc(C)cn1)OCC	inactive: 4.98%
CCOP(=O)(NC(=NC(C)c1ccccc1)NC(C)c1ccccc1)OCC (stereo unspecified)	inactive: -7.61%
O=P1(Nc2ccccn2)COc2ccccc2OC1	inactive: -7.75%
CCC1=CC2Cc3nc4ccc(Cl)cc4c(N)c3C(C1)C2 (stereo unspecified)	inactive: -6.23%
CCC(C)N(CC(C)C)C(=S)SC(NC(C)=O)C(Cl)(Cl)Cl (stereo unspecified)	inactive: -14%
CCOC(=O)c1ccc(NC(=O)C(C)(CCl)SC)cc1 (stereo unspecified)	inactive: 1.3%
CSc1ccc(Nc2c([N+](=O)[O-])cc([N+](=O)[O-])cc2[N+](=O)[O-])cc1	inactive: -9.4%
O=C(OC1CN2CCC1CC2)c1cccc([N+](=O)[O-])c1 (stereo unspecified)	inactive: 4.39%
O=C(Nc1ccncc1[N+](=O)[O-])c1ccc([N+](=O)[O-])cc1[N+](=O)[O-]	inactive: -1.29%
O=C(COc1ccccc1)OC1CN2CCC1CC2 (stereo unspecified)	inactive: 1.33%
O=C(O)C(=O)c1ccc(N(CCCl)CCCl)cc1	inactive: -12.7%
COC(=O)C1(C)COP(=O)(N2CCCC2)OC1 (stereo unspecified)	inactive: 0.0613%

Compound	activity, negative = inhibition
COP1(=S)c2c(C)nn(CCC#N)c2N=C(c2ccc(F)cc2)N1C (stereo unspecified)	inactive: -3.98%
O=[N+]([O-])c1ccc(Nc2ccc(Oc3ccc([N+](=O)[O-])cc3[N+](=O)[O-])cc2)c([N+](=O)[O-])c1	inactive: -5.11%
O=P(Nc1ccccn1)(c1cccc2ccccc12)c1cccc2ccccc12	inactive: -4.66%
Cc1cc(SC(NC=O)C(Cl)(Cl)Cl)ncn1 (stereo unspecified)	inactive: -19.7%
CCOC(=O)Nc1cccc([As](=O)(O)O)c1	inactive: -14.2%
CCCCOc1ccc(C(=O)NCC2(N3CCCCC3)CCCCC2)cc1OC	inactive: -1.48%
COP(=O)(OC)N1CC1c1ccccc1 (stereo unspecified)	inactive: 4.35%
CC1CCNP(=O)(N(CCCl)CCCl)O1 (stereo unspecified)	inactive: 2.16%
CCOC(=O)Nc1ccc([As](=O)(O)O)c(O)c1	inactive: 6.21%
O=C(O)C(O)c1ccc(N(CCCl)CCCl)cc1 (stereo unspecified)	inactive: -6.49%
O=[N+]([O-])c1cc([N+](=O)[O-])c(-c2ccn[nH]2)s1	inactive: -0.151%
O=C(OC1CN2CCC1CC2)c1cccc2[nH]cnc12 (stereo unspecified)	inactive: 0.493%
CC(C)NC(=O)NP(=O)(Oc1ccccc1)Oc1ccccc1	inactive: -14.6%
CC(C)c1ccc(OP(=O)(Nc2ccccn2)Oc2ccccc2F)cc1 (stereo unspecified)	inactive: -0.619%
COC(=O)C1(C)COP(=O)(N2CCCCCC2)OC1 (stereo unspecified)	inactive: -7.96%
ClCCSc1nnc(-c2cccnc2)o1	inactive: 3.24%
Cc1ccc2nc3c(c(C)c2c1)CC(C(Cl)Cl)S3 (stereo unspecified)	inactive: -17%
[N-]=[N+]=NC1CCCCC1NC(=O)c1cc([N+](=O)[O-])cc([N+](=O)[O-])c1 (stereo unspecified)	inactive: 3.05%
Cc1ccc(OP(=O)(Nc2ccc([N+](=O)[O-])cn2)Oc2ccc(C)cc2)cc1	inactive: 0.603%
COc1cc(C(=O)NCC2(N3CCOCC3)CCCCC2)ccc1OCC(C)C	inactive: -7.26%
O=[N+]([O-])c1ccc(-c2cc([N+](=O)[O-])c(O)c([N+](=O)[O-])c2)cc1	inactive: -14%
O=[As](O)(c1ccc(O)cc1)c1ccccc1O	inactive: 24.8%
C[As](=O)(O)c1cccc(C(=O)O)c1	inactive: 2.03%
COc1ccc(N/C(=N/P(=O)(N2CCOCC2)N2CCOCC2)N2CCOCC2)cc1	inactive: 0.364%
O=[N+]([O-])c1cc(Oc2ccc([N+](=O)[O-])cc2C(F)(F)F)cc([N+](=O)[O-])c1	inactive: 4.62%
COc1cc(I)ccc1[As](=O)(O)O	inactive: -8.85%

Compound	activity, negative = inhibition
COc1ccc2nc(NP(=O)(c3ccccc3)c3ccccc3)sc2c1	inactive: -4.35%
O=P1(N(CCCl)CCCl)Nc2ccccc2N1	inactive: -0.437%
O=P1(N(CCCl)CCCl)OCCCN1CCCl (stereo unspecified)	inactive: 3.71%
Cc1cc(=O)[nH]c(N[N+](=O)[O-])n1	inactive: -5.62%
O=C(OC1CN2CCC1CC2)C12CC3CC(CC(C3)C1)C2 (stereo unspecified)	inactive: 0.686%
Cc1c2c(nc3ccccc13)SC(C(Cl)Cl)C2 (stereo unspecified)	inactive: -5.47%
O=[N+]([O-])C1C(O)C(O)C([N+](=O)[O-])C(O)C1O (stereo unspecified)	inactive: -4.11%
CC(C)CC(=O)NC(Sc1ccc(Cl)cc1)C(Cl)(Cl)Cl (stereo unspecified)	inactive: -1.94%
Nc1cc(N)c2nonc2c1[N+](=O)[O-]	inactive: -13.5%
O=C(NC(Sc1ccncn1)C(Cl)(Cl)Cl)c1ccccc1 (stereo unspecified)	inactive: 0.542%
Oc1ccccc1CNc1ccccn1	inactive: -6.95%
Cc1ccc(OP(=O)(Nc2nccs2)Oc2ccc(C)cc2)cc1	inactive: -2.42%
COc1ccccc1OP(=O)(Nc1ccc(C)cn1)Oc1ccccc1OC	inactive: 3.66%
Clc1ccc(Cl)c(NC2=NCC(CBr)S2)c1 (stereo unspecified)	inactive: -3.94%
CN1CCCC(OC(=O)C(c2ccccc2)c2ccccc2)C1 (stereo unspecified)	inactive: 1.17%
NC(=O)c1cc([N+](=O)[O-])cc([N+](=O)[O-])c1N	inactive: -4.05%
Cc1ccc(N/C(=N/P(=O)(N2CCOCC2)N2CCOCC2)N2CCOCC2)cc1	inactive: -18.7%
CCN(N=Nc1nonc1N)c1nonc1N	inactive: -0.0313%
Nc1cccc2ccc([As](=O)(O)O)cc12	inactive: -12.3%
Cc1ccc(NP(=O)(Oc2ccccc2F)Oc2ccccc2F)nc1	inactive: -0.612%
CCOP(=O)(Nc1ccccc1)OCC	inactive: -10.4%
CCCC1OP(N)(=O)OCC1CC (stereo unspecified)	inactive: 10.1%
O=C(O)c1ccccc1[As](=O)(O)O	inactive: 2.42%
